# Reference: patent US10195189B2, “2-phenethenyltetrahydro isoquinolines useful as anti-HIV compounds” (priority 2014, dated 2019)
# Tested on: HIV-1 NL4-3 viral clone expressing Renilla luciferase
# Format: cell-based
# Details: ratio of CC50 over EC50
# Method: Protocol for MT-2 Spread Assay
# The present assay was used to screen candidate antiviral compounds by quantification of virus spread and production over several rounds of infection in vitro. MT-2, a HIV-1 permissive human T-cell line, was seeded in microtiter plates and was simultaneously treated with serially diluted compound and inoculated with a HIV-1 NL4-3 viral clone engineered to express Renilla luciferase in place of Net Following treatment, the culture was incubated for 96 hours. After the incubation, media was collected and used to estimate relative infectivity on the indicator cell line, TZM-bl. Additionally, viral spread was quantified by measuring luciferase activity via a commercially available luciferase substrate. In parallel, MT-2 cells were seeded and inoculated with mock virus in the presence of serially diluted compound. Compound toxicity was quantified 96 hours after treatment with AlamarBlue.
# MT-2 (NIH Aids reagent program 237) cells were grown and maintained in an incubator at 37° C. with 5% CO2 using a basal medium of RPMI-1640 supplemented with 10% FBS. Cells were seeded in 100 μl at 2×10^4 cells/well in white walled 96-well microtiter plates. Candidate compounds were 3-fold serially diluted in the appropriate solvent. Solvent without compound was used as a no drug reference. Cells were inoculated at a multiplicity of 0.027 with an HIV-1 NL4-3 virus stock engineered to express Renilla luciferase in place of Net Diluted virus stock was first added to serially diluted compound. Compound and virus were delivered to cells in an equal volume (100 μl) and treated cultures were returned to the incubator for 96 hours. In parallel, plates for cytotoxicity estimates were prepared in the same way except cells were plated in clear walled 96-well microtiter plates and were mock infected.
# At 96 hours post infection, 100 μl virus containing culture supernatant was collected from the treated and infected cultures and serially diluted in DMEM supplemented with 10% FBS, 1% sodium pyruvate, and 20 μg/ml DEAE dextran. One day prior, TZM-bl (ATCC PTA-5659) were cultured in basal medium of DMEM supplemented with 10% FBS and 1% sodium pyruvate and seeded at 7.5×10^3 cells/well in black walled 96-well microtiter plates. Diluted virus containing culture supernatant was transferred to TZM-bl cultures and incubated for 48 hours at 37° C. with 5% CO2. Infected TZM-bl cultures were fixed for 5 minutes with a 1% formaldehyde/0.2% gluteraldehyde/PBS solution then washed three times with PBS. Fixed cultures were incubated at 37° C. for 25 minutes with a 200 μg/ml MUG (4-Methylumbelliferyl β-D-[…])/DMEM solution. The reaction was stopped with an equal volume of 1M sodium carbonate and read at 360, 449 nm on fluorescence plate reader (Biotek).
# At 96 hours post infection, 100 μl of culture supernatant was removed from the treated and infected cultures and EnduRen live cell substrate (Promega) was added at a final concentration 1.3 μg/ml. Cells were incubated for 1.5 hours at 37° C. with 5% CO2 then read on a luminescence plate reader (Biotek).
# For all assays, data was imported into Accelrys Assay Explorer 3.3. In Assay Explorer, % inhibition (antiviral or cytotoxicity) was calculated using the solvent control as a reference by the following equation: 1−(SignalCompound/SignalReference). The % Inhibition and compound concentration data was fitted using the following 4-parameter logistic model (Assay Explorer model 42):
# [formula] where X is compound concentration, Y is % inhibition, D is the maximum % Inhibition (constrained to 100%), C is IC50 value or inflection point, B is the hill slope, and A is the minimum % inhibition (constrained to 0%). The IC50 value is reported as the EC50 or CC50 depending on the assay endpoint. EC50 represents the effective concentration at which virus replication is inhibited by 50 percent. CC50 represents the concentration that results in the death of 50 percent of the host cells. […]
row,SMILES,SI
1,"COc1ccc(/C=C/C2NCCc3cc(OCc4ccccc4)c(OC)cc32)cc1 (stereo not drawn) [BJ, 6-Benzyloxy-7-methoxy-1-[(E)-2-(4-methoxyphenyl)vinyl]-1,2,3,4-tetrahydroisoquinoline]",43.54
2,"COc1cc2c(cc1OCc1ccccc1)CCNC2/C=C/c1cccc(-c2ccncc2)c1 (stereo not drawn) [DQ, 6-(Benzyloxy)-7-methoxy-1-[(E)-2-[3-(pyridin-4-yl)phenyl]ethenyl]-1,2,3,4-tetrahydroisoquinoline]",35
3,"COc1cc(C)c(/C=C/C2c3cc(OC)c(OCc4ccccc4)cc3CCN2C(=O)c2cnccn2)cc1OCc1ccccc1 (stereo not drawn) [Example H, [6-Benzyloxy-1-[(E)-2-(5-benzyloxy-4-methoxy-2-methyl-phenyl)vinyl]-7-methoxy-3,4-dihydro-1H-isoquinolin-2-yl]-pyrazin-2-yl-methanone]",22.3
4,"COc1cc2c(cc1OCc1ccccc1)CCNC2/C=C/c1ccccc1N (stereo not drawn) [CX, 2-[(E)-2-(6-benzyloxy-7-methoxy-1,2,3,4-tetrahydroisoquinolin-1-yl)vinyl]aniline]",14
5,"COc1cc(/C=C/C2NCCc3cc(OCc4ccccc4)c(OC)cc32)ccn1 (stereo not drawn) [AU, 6-benzyloxy-7-methoxy-1-[(E)-2-(2-methoxy-4-pyridyl)vinyl]-1,2,3,4-tetrahydroisoquinoline]",2
6,"COc1ccc(/C=C/C2NCCc3cc(OCc4ccccc4)c(OC)cc32)cc1OCc1ccccc1 (stereo not drawn) [Example AB, 6-benzyloxy-1-[(E)-2-(3-benzyloxy-4-methoxy-phenyl)vinyl]-7-methoxy-1,2,3,4-tetrahydroisoquinoline]",27.1
7,"COc1cc2c(cc1OCc1ccccc1)CCNC2/C=C/c1ccc(-c2ncco2)cc1 (stereo not drawn) [ED, 2-[4-[(E)-2-(6-Benzyloxy-7-methoxy-1,2,3,4-tetrahydroisoquinolin-1-yl)vinyl]phenyl]oxazole]",13
8,"COc1cc2c(cc1OCc1ccccc1)CCNC2/C=C/c1ccccc1C(F)(F)F (stereo not drawn) [DA, (E)-6-(benzyloxy)-7-methoxy-1-(2-(trifluoromethyl)styryl)-1,2,3,4-tetrahydroisoquinoline]",4.3
9,"COc1ccc(/C=C/C2NCCc3cc(OCc4ccccc4)c(OC)cc32)cn1 (stereo not drawn) [AX, 6-Benzyloxy-7-methoxy-1-[(E)-2-(6-methoxy-3-pyridyl)vinyl]-1,2,3,4-tetrahydroisoquinoline]",3.5
10,"COc1cc2c(cc1OCc1ccccc1)CCNC2/C=C/c1ccc(-c2cncnc2)cc1 (stereo not drawn) [DS, 6-(Benzyloxy)-7-methoxy-1-[(E)-2-[4-(pyrimidin-5-yl)phenyl]ethenyl]-1,2,3,4-tetrahydroisoquinoline]",64
11,"COc1cc2c(cc1OCc1ccccc1)CCNC2/C=C/c1cc2c(cc1C)OCO2 (stereo not drawn) [BB, 6-Benzyloxy-7-methoxy-1-[(E)-2-(6-methyl-1,3-benzodioxol-5-yl)vinyl]-1,2,3,4-tetrahydroisoquinoline]",54.9
12,"COc1ccc(/C=C/C2NCCc3cc(OCc4ccccc4)c(OC)cc32)c(C)c1 (stereo not drawn) [Example AG, 6-benzyloxy-7-methoxy-1-[(E)-2-(4-methoxy-2-methyl-phenyl)vinyl]-1,2,3,4-tetrahydroisoquinoline]",127.4
13,"COc1cccc(/C=C/C2NCCc3cc(OCc4ccccc4)c(OC)cc32)c1 (stereo not drawn) [EJ, 6-Benzyloxy-7-methoxy-1-[(E)-2-(3-methoxyphenyl)vinyl]-1,2,3,4-tetrahydroisoquinoline]",3.3
14,"COc1cc2c(cc1OCc1ccccc1)CCNC2/C=C/c1cccc(C(F)(F)F)c1 (stereo not drawn) [DB, (E)-6-(benzyloxy)-7-methoxy-1-(3-(trifluoromethyl)styryl)-1,2,3,4-tetrahydroisoquinolin]",3.7
15,"COc1cc(C)c(/C=C/C2NCCc3cc(OCc4ccccc4)c(OC)cc32)cc1OCCCCN=[N+]=[N-] (stereo not drawn) [CD, 1-[(E)-2-[5-(4-azidobutoxy)-4-methoxy-2-methyl-phenyl]vinyl]-6-benzyloxy-7-methoxy-1,2,3,4-tetrahydroisoquinoline]",18.5
16,"COc1cc2c(cc1OCc1ccccc1)CCNC2/C=C/c1ccc(OC(F)(F)F)cc1C (stereo not drawn) [Example AJ, (E)-6-(benzyloxy)-7-methoxy-1-(2-methyl-4-(trifluoromethoxy)styryl)-1,2,3,4-tetrahydroisoquinoline]",1.83
17,"CCOC(=O)c1coc(-c2ccc(/C=C/C3NCCc4cc(OCc5ccccc5)c(OC)cc43)cc2)n1 (stereo not drawn) [EE, Ethyl 2-[4-[(E)-2-(6-benzyloxy-7-methoxy-1,2,3,4-tetrahydroisoquinolin-1-yl)vinyl]phenyl]oxazole-4-carboxylate]",2.8
18,COc1cc2c(cc1OCc1ccccc1)CCNC2/C=C/c1cn(C)c2ncccc12 (stereo not drawn) [DP],92
19,COc1cccc(-c2ncc(/C=C/C3NCCc4cc(OCc5ccccc5)c(OC)cc43)cn2)c1 (stereo not drawn) [DN],7.1
20,"COc1cc2c(cc1OCc1ccccc1)CCNC2/C=C/c1ccccc1N1CCCCC1 (stereo not drawn) [DX, 6-(Benzyloxy)-7-methoxy-1-[(E)-2-[2-(piperidin-1-yl)phenyl]ethenyl]-1,2,3,4-tetrahydroisoquinoline]",1.3
21,"COc1cc2c(cc1OCc1ccccc1)CCNC2/C=C/c1cc(OC(F)(F)F)ccc1C (stereo not drawn) [BH, 6-Benzyloxy-7-methoxy-1-[(E)-2-[2-methyl-5-(trifluoromethoxy)phenyl]vinyl]-1,2,3,4-tetrahydroisoquinoline]",2.75
22,"COCCCCOc1cc(OC)ccc1/C=C/C1NCCc2cc(OCc3ccccc3)c(OC)cc21 (stereo not drawn) [Example AI, (E)-6-(benzyloxy)-7-methoxy-1-(4-methoxy-2-(4-methoxybutoxy)styryl)-1,2,3,4-tetrahydroisoquinoline]",3.9
23,"COc1cc2c(cc1OCc1ccccc1)CCNC2/C=C/c1ccc2c(c1)CCO2 (stereo not drawn) [BM, 6-Benzyloxy-1-[(E)-2-(2,3-dihydrobenzofuran-5-yl)vinyl]-7-methoxy-1,2,3,4-tetrahydroisoquinoline]",139.8
24,"COc1cc(C)c(/C=C/C2NCCc3cc(OCc4ccccc4)c(OC)cc32)cc1OCc1ccccc1 (stereo not drawn) [AF, 6-benzyloxy-1-[(E)-2-(5-benzyloxy-4-methoxy-2-methyl-phenyl)vinyl]-7-methoxy-1,2,3,4-tetrahydroisoquinoline]",48.2
25,"COc1cc2c(cc1OCc1ccccc1)CCNC2/C=C/c1cccc2c1OCCC2 (stereo not drawn) [CF, 6-Benzyloxy-1-[(E)-2-chroman-8-ylvinyl]-7-methoxy-1,2,3,4-tetrahydroisoquinoline]",18.6
26,"COc1cc2c(cc1OCc1ccccc1)CCNC2/C=C/c1cn(C(=O)OC(C)(C)C)c2ccccc12 (stereo not drawn) [CI, tert-Butyl 3-[(E)-2-(6-benzyloxy-7-methoxy-1,2,3,4-tetrahydroisoquinolin-1-yl)vinyl]indole-1-carboxylate]",21.7
27,"COCCOc1ccccc1/C=C/C1NCCc2cc(OCc3ccccc3)c(OC)cc21 (stereo not drawn) [DE, (E)-6-(benzyloxy)-7-methoxy-1-(2-(2-methoxyethoxy)styryl)-1,2,3,4-tetrahydroisoquinoline]",6.9
28,"COc1cc2c(cc1OCc1ccccc1)CCNC2/C=C/c1ccc(-n2ccnc2C)cc1 (stereo not drawn) [DM, (E)-6-(benzyloxy)-7-methoxy-1-(4-(2-methyl-1H-imidazol-1-yl)styryl)-1,2,3,4-tetrahydroisoquinoline]",14
29,"COc1cc2c(cc1OCc1ccccc1)CCNC2/C=C/c1ccc2occc2c1 (stereo not drawn) [BN, 1-[(E)-2-(benzofuran-5-yl)vinyl]-6-benzyloxy-7-methoxy-1,2,3,4-tetrahydroisoquinoline]",24.8
30,"COc1cc2c(cc1OCc1ccccc1)CCNC2/C=C/c1cc(OC)c(OCc2ccccc2)c(OC)c1 (stereo not drawn) [AP, 6-Benzyloxy-1-[(E)-2-(4-benzyloxy-3,5-dimethoxy-phenyl)vinyl]-7-methoxy-1,2,3,4-tetrahydroisoquinoline]",1.7
